Anti-infective test results gathered from many reports (values: NIAID ChemDB through PubChem).

Common to all: whole-cell or culture tests; organism: Candida albicans; endpoint: MIC

Neighbouring rows are from separate reports.

structure | strain or isolate | result
CN1CCC2=C(CCCC2CCc2c(Cl)cccc2Cl)C1 | 2381E | 16 µg/mL
CCC(C)n1ncn(-c2ccc(N3CCN(c4ccc(OC[C@H]5CO[C@](Cn6cncn6)(c6ccc(Cl)cc6Cl)O5)cc4)CC3)cc2)c1=O | Isogenic isolate 5 MDR1 (25X) | 0.03 µg/mL
Clc1ccc(CCC2CCCc3cnccc32)c(Cl)c1 | C316 | >125 µg/mL
CN1CCN(c2c(F)cn3c(=O)c(C(=O)O)cc(-c4ccccc4)c3c2F)CC1.Cl | CCH442 | >100 µg/mL
Cc1c(N2C[C@@H]3CCCN[C@@H]3C2)c(F)cn2c(=O)c(C(=O)O)cc(C3CC3)c12 | CCH442 | >100 µg/mL
C=C(C)C1OC1c1c(OC)ccc2ccc(=O)oc12 | ATCC 14053 | 500 µg/mL
CCC[C@H](N)[C@@H]1CCN(c2c(F)cn3c(=O)c(C(=O)O)cc(C4CC4)c3c2C)C1.Cl | CCH442 | 6.2 µg/mL
Clc1ccccc1CCC1CCCc2cnccc21 | C316 | >125 µg/mL
CCCCn1sc2cc(F)ccc2c1=O | ATCC 2091 | 15 µg/mL
CC1=C(N2CCC(F)(CN)C2)C(F)=CN2C(=O)C(C(=O)O)=CC(C3CC3)C12 | CCH442 | >100 µg/mL
NC(=O)c1cccc(C(F)(F)F)c1SSc1c(C(N)=O)cccc1C(F)(F)F | ATCC 2091 | 30 µg/mL
CC(C)=CCc1cc2cc(CC=C(C)C)c(=O)oc2cc1O | ATCC 14053 | 500 µg/mL
CN1CCC2=C(CCCC2CCc2ccccc2)C1 | 1208E | 31 µg/mL
CCc1c(N2CCC(N)C2)c(F)cn2c(=O)c(C(=O)O)cc(C3CC3)c12.Cl | CCH442 | >100 µg/mL
CN1CCC2=C(CCCC2CCc2ccc(Br)cc2)C1 | 2402E | 4 µg/mL
COc1ccc(OC)c(C(=O)/C=C/c2cc3cc(OC)c(OC)cc3nc2Cl)c1 | ATCC 10231 | >50 µg/mL
CO[C@H]1OC(=O)C[C@@]2(O)[C@@]13O[C@@H]3C1OC(=O)[C@@]3(C)CCC[C@@]2(C)[C@@H]13 | 1463D | >64 µg/mL
O=c1[nH]sc2cc(F)ccc12 | ATCC 2091 | 15 µg/mL
O=c1ccc2cc(O)ccc2o1 | ATCC 14053 | 500 µg/mL
COC(=O)C(C(=O)OC)C(CC(=O)c1ccccc1)c1ccccc1 | ATCC 10231 | >50 µg/mL
Cc1c(N2CCCC(CO)C2)c(F)cn2c(=O)c(C(=O)O)cc(C3CC3)c12 | CCH442 | >100 µg/mL
CN1CC[C@H]2[C@@H](CC[C@@H]3c4cc(Cl)ccc4CC[C@H]23)C1 | C316 | 100 µg/mL
CN(C/C=C/C#CC(C)(C)C)Cc1cccc2ccccc12 | SC5314 | >10.5 µg/mL
Cc1c(N2C=NCC2)c(F)cn2c(=O)c(C(=O)O)cc(C3CC3)c12.Cl | CCH442 | >100 µg/mL
C[C@H](CCC(=O)NCCNCCNC(=O)CC[C@@H](C)[C@H]1CCC2C3C(C[C@H](C)[C@@]21O)[C@@]1(C)CC[C@@H](O)CC1C[C@H]3O)[C@H]1CCC2C3C(C[C@H](C)[C@@]21O)[C@@]1(C)CC[C@@H](O)CC1C[C@H]3O | Isolate 3 | 0.011 µM
CN1CCC2=C(CCCC2CCc2cccc(Cl)c2)C1 | 2381E | 16 µg/mL
CC[C@H]1OC(=O)C=C2[C@@]13O[C@@H]3C1OC(=O)[C@@]3(C)CCC[C@@]2(C)[C@@H]13 | ATCC 90029 | 16 µg/mL
CCCCNC(=O)c1c(F)cccc1SSc1cccc(F)c1C(=O)NCCCC | ATCC 2091 | 5 µg/mL
O=c1ccc2ccc([N+](=O)[O-])cc2o1 | ATCC 14053 | 250 µg/mL
O=C(/C=C/c1ccc([N+](=O)[O-])cc1)c1ccccc1 | ATCC 10231 | >50 µg/mL
Cc1c(N2C[C@@H](CN)[C@H](C(F)(F)F)C2)c(F)cn2c(=O)c(C(=O)O)cc(C3CC3)c12 | CCH442 | >100 µg/mL
N#CC(C#N)C(CC(=O)c1ccccc1)c1cc2ccccc2nc1Cl | ATCC 10231 | >50 µg/mL
C[C@@H]1[C@H](O)[C@@H](C)/C=C/C=C/CC/C=C/C=C/C=C/C=C/C(O[C@H]2O[C@H](C)[C@@H](O)[C@H](N)[C@@H]2O)CC2O[C@](O)(CC(O)C(O)CCC(O)CC(O)CC(O)CC(=O)O[C@H]1C)CC(O)C2C(=O)O | MTCC 7315 | 150 µg/mL
Cc1c(N2C[C@@H]3CCC[C@@H](N)[C@H]3C2)c(F)cn2c(=O)c(C(=O)O)cc(C3CC3)c12.Cl | CCH442 | 50 µg/mL
COc1cccc(C(CC(=O)c2ccccc2)C(C#N)C#N)c1OC | ATCC 10231 | >50 µg/mL
CC1=C(N2C[C@@H](CF)[C@@H](N)C2)C(F)=CN2C(=O)C(C(=O)O)=CC(C3CC3)C12 | CCH442 | >100 µg/mL
CCNCC1CCN(c2c(F)cn3c(=O)c(C(=O)O)cc(C4CC4)c3c2C)CC1.Cl | CCH442 | >100 µg/mL
Cc1c(N2CC(N)C2)c(F)cn2c(=O)c(C(=O)O)cc(C3CC3)c12 | CCH442 | >100 µg/mL
Clc1ccc(CCC2CCCc3cnccc32)cc1 | 1208E | 8 µg/mL
Cc1c(N2CCCC(C)(N)C2)c(F)cn2c(=O)c(C(=O)O)cc(C3CC3)c12.Cl | CCH442 | >100 µg/mL
Cc1c(N2CC(N)C(O)C2)c(F)cn2c(=O)c(C(=O)O)cc(C3CC3)c12.Cl | CCH442 | 100 µg/mL